Results taken from PMC9971899, “Identification and structural analysis of a carbohydrate-binding module specific to alginate, a representative of a new family, CBM96” (The Journal of Biological Chemistry, 2022).

test system: TM6-N4; experiment: Isothermal titration calorimetry of alginate and oligoalginate binding to TM6-N4; set-up: species or system Defluviitalea phaphyphila; settings: ITC, 25 °C, pH 7.0
Protocol: To characterize the binding of TM6-N4 to alginate, isothermal titration calorimetry (ITC) experiments were carried out at 25 °C and pH 7.0, with alginate and oligoalginate standards including G3, G4, G5, G6, G7, M3, M5, M6, and M7 as substrate and TM6-N4 as the enzyme. […] Nevertheless, G3 produced a profile of CBM–ligand interaction (Fig. 2A). It is thus likely that the binding sites of TM6-N4 required at least three uronic acid units to yield stable binding complexes. […] These discrepancies may reflect the fact that one alginate chain has accommodated several protein molecules and the fact of the thermodynamic instability of the long alginate chain.
Figure 2 Thermograms (upper panels) and binding isotherms with theoretical fits (lower panels) obtained for the binding. G3 (A), G4 (B), G5 (C), G6 (D), G7 (E), M3 (F), M5 (G), M6 (H), M7 (I), and alginate (J) to TM6-N4. The buffer used was 20 mM Tris–HCl buffer, pH 7.0. Protein concentration was 20 μM for TM6-N4.
The proteins were dialyzed extensively against buffer with 20 mM Tris–HCl (pH 7.0) without NaCl and adjusted concentration to 20 μM, and the oligosaccharide ligands (purity ≥95%; Qingdao BZ Oligo Biotech Co Ltd) or alginate ligands (viscosity >0.02 Pa·s, 1% alginate in H2O at 25 °C) were dissolved in the same buffer to minimize heats of dilution with a concentration of 200 μM. To avoid bubble formation, all the samples were degassed by centrifugation at 12,000 rpm/10 min. Calorimetric titration was performed with MicroCal PEAQ-ITC (Malvern Panalytical). During a titration experiment, the protein sample was stirred at a speed of 750 rpm and kept a constant temperature of 25 °C, and the titration needle was filled with 80 μl oligosaccharide or alginate ligand. Titrations were completed after 19 injections (each 3 μl) at an interval of 150 s. The data were analyzed by using the one-site binding model in the MicroCal PEAQ-ITC Analysis software. The fitted data yielded the dissociation constant (Kd), the number of binding sites on the protein (n), and the enthalpy of binding (ΔH). Other thermodynamic parameters can be calculated by using the standard thermodynamic equation ΔG = −RTln Ka = ΔH-TΔS. Titrations were carried out in triplicate for most ligands, and the errors are the SD of the mean of these replicates.

Structure (SMILES)	N (number of binding sites)
O=C(O)[C@@H]1O[C@@H](O[C@H]2[C@H](O)[C@H](O)[C@H](O[C@H]3[C@H](O)[C@H](O)[C@H](O[C@H]4[C@H](O)[C@H](O)[C@H](O[C@H]5[C@H](O)[C@H](O)[C@H](O[C@H]6[C@H](O)[C@H](O)C(O)O[C@H]6C(=O)O)O[C@H]5C(=O)O)O[C@H]4C(=O)O)O[C@H]3C(=O)O)O[C@H]2C(=O)O)[C@@H](O)[C@@H](O)[C@@H]1O (some centres unmarked) [G6]	1.0 ± 0.02 site
O=C(O)[C@H]1O[C@@H](O[C@H]2[C@H](O)[C@H](O)[C@H](O[C@H]3[C@H](O)[C@H](O)[C@H](O[C@H]4[C@H](O)[C@H](O)[C@H](O[C@H]5[C@H](O)[C@H](O)[C@H](O[C@H]6[C@H](O)[C@H](O)C(O)O[C@@H]6C(=O)O)O[C@@H]5C(=O)O)O[C@@H]4C(=O)O)O[C@@H]3C(=O)O)O[C@@H]2C(=O)O)[C@@H](O)[C@@H](O)[C@@H]1O (some centres unmarked) [M6]	0.5 ± 0.02 site
O=C(O)[C@@H]1O[C@@H](O[C@H]2[C@H](O)[C@H](O)[C@H](O[C@H]3[C@H](O)[C@H](O)[C@H](O[C@H]4[C@H](O)[C@H](O)C(O)O[C@H]4C(=O)O)O[C@H]3C(=O)O)O[C@H]2C(=O)O)[C@@H](O)[C@@H](O)[C@@H]1O (some centres unmarked) [G4]	1.2 ± 0.02 site
O=C(O)[C@@H]1O[C@@H](O[C@H]2[C@H](O)[C@H](O)[C@H](O[C@H]3[C@H](O)[C@H](O)[C@H](O[C@H]4[C@H](O)[C@H](O)[C@H](O[C@H]5[C@H](O)[C@H](O)[C@H](O[C@H]6[C@H](O)[C@H](O)[C@H](O[C@H]7[C@H](O)[C@H](O)C(O)O[C@H]7C(=O)O)O[C@H]6C(=O)O)O[C@H]5C(=O)O)O[C@H]4C(=O)O)O[C@H]3C(=O)O)O[C@H]2C(=O)O)[C@@H](O)[C@@H](O)[C@@H]1O (some centres unmarked) [G7]	0.8 ± 0.01 site
O=C(O)[C@H]1O[C@@H](O[C@H]2[C@H](O)[C@H](O)[C@H](O[C@H]3[C@H](O)[C@H](O)[C@H](O[C@H]4[C@H](O)[C@H](O)[C@H](O[C@H]5[C@H](O)[C@H](O)C(O)O[C@@H]5C(=O)O)O[C@@H]4C(=O)O)O[C@@H]3C(=O)O)O[C@@H]2C(=O)O)[C@@H](O)[C@@H](O)[C@@H]1O (some centres unmarked) [M5, mannuronate pentasaccharide]	0.6 ± 0.04 site
O=C(O)[C@@H]1O[C@@H](O[C@H]2[C@H](O)[C@H](O)[C@H](O[C@H]3[C@H](O)[C@H](O)[C@H](O[C@H]4[C@H](O)[C@H](O)[C@H](O[C@H]5[C@H](O)[C@H](O)C(O)O[C@H]5C(=O)O)O[C@H]4C(=O)O)O[C@H]3C(=O)O)O[C@H]2C(=O)O)[C@@H](O)[C@@H](O)[C@@H]1O (some centres unmarked) [G5]	0.9 ± 0.02 site
O=C(O)[C@H]1O[C@@H](O[C@H]2[C@H](O)[C@H](O)[C@H](O[C@H]3[C@H](O)[C@H](O)[C@H](O[C@H]4[C@H](O)[C@H](O)[C@H](O[C@H]5[C@H](O)[C@H](O)[C@H](O[C@H]6[C@H](O)[C@H](O)[C@H](O[C@H]7[C@H](O)[C@H](O)C(O)O[C@@H]7C(=O)O)O[C@@H]6C(=O)O)O[C@@H]5C(=O)O)O[C@@H]4C(=O)O)O[C@@H]3C(=O)O)O[C@@H]2C(=O)O)[C@@H](O)[C@@H](O)[C@@H]1O (some centres unmarked) [M7]	0.5 ± 0.05 site
O=C(O)[C@@H]1O[C@@H](O[C@H]2[C@H](O)[C@H](O)[C@H](O[C@H]3[C@H](O)[C@H](O)C(O)O[C@H]3C(=O)O)O[C@H]2C(=O)O)[C@@H](O)[C@@H](O)[C@@H]1O (some centres unmarked) [G3]	0.3 ± 0.04 site
